Experiment: Comparison of sweetness by organoleptic evaluation
Settings: for Sweetness: relative to sugar (5% solution), 10 panelists, pair testing, room temperature

## OC[C@H]1O[C@H](OC[C@H]2OC(O)(CO)[C@@H](O)[C@@H]2O)[C@H](O)[C@@H](O)[C@@H]1O (stereo partly drawn) [Palatinose, palatinose]
Compared with sugar
  Sweetness (in words): sweetness as low as less than half of sugar
  Sweetness: 0.4

## OC[C@H]1O[C@@](CO)(O[C@H]2O[C@H](CO)[C@@H](O)[C@H](O)[C@H]2O)[C@@H](O)[C@@H]1O [Sugar]
  Sweetness: 1.0
